Five compounds from ChEMBL document CHEMBL1134771, “Synthesis and antimalarial activity of novel medium-sized 1,2,4,5-tetraoxacycloalkanes” (J Med Chem, 2001) can be followed below.

The test has as its system Plasmodium falciparum. Description: In vitro antimalarial activity for Plasmodium falciparum. Type of test: functional, organism-based. The procedure, abridged: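 Chloroquine-sensitive P. falciparum FCR-3 strain cultured in vitro; EC50 determined.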
`C1CCCC2(CC1)OOCCCOO2` gave an EC50 of 200 nM.
As for `CCCCC1(CCCC)OOCCCOO1`, the figure is 280 nM; as for `C1CCC(C2OOCCCOO2)CC1`, 200 nM; as for `OOC1(OO)CCCCCCCCCCC1`, 100000 nM.
The same measure for `C1CCCC2(CCC1)OOCCCOO2`: 200 nM.
